This assay concerns the target His-TEV-Prs (E. coli Prs with an N-terminal His6 tag and TEV cleavage site, uncleaved) (E. coli). The assay can be described thus: pull-down.

B1: untagged Prs (phosphoribosyl pyrophosphate synthase, E. coli), after removal of the His6 tag by TEV protease (enzyme)
chain: not shown
In the case of B1, the binding result is on record as “binds”.

Source of the values: article doi:10.1101/864173 (bioRxiv, 2019).
